Pooled drug test results. Numbers come from NIAID ChemDB, via PubChem.

Shared fields: whole-cell or culture tests; agent: Staphylococcus aureus

Conditions beyond the fields shown may differ between rows. MIC50, MIC90 and the like: level of inhibition, or share of isolates inhibited.

SMILES,endpoint,strain,value
CNC(=O)N[C@H]1CCN(c2ccc(N3C[C@H](CNc4ccon4)OC3=O)cc2F)C1,MIC,078 (oxford),0.25 µg/mL
CC[C@H]1OC(=O)[C@H](C)C(=O)[C@H](C)[C@@H](O[C@@H]2O[C@H](C)C[C@H](N(C)C)[C@H]2O)[C@@]2(C)C[C@@H](C)C(=NC(C)=O)[C@H](C)C(OC/C(=C\C=C\c3ccc(F)cc3)CO2)[C@]1(C)O,MIC,33591 (erythromycin methicillin-resistant),16 µg/mL
CC[C@H]1OC(=O)[C@H](C)C(=O)[C@H](C)[C@@H](O[C@@H]2O[C@H](C)C[C@H](N(C)C)[C@H]2O)[C@@]2(C)C[C@@H](C)C(=NC(C)=O)[C@H](C)[C@@H](OC/C(=N\OCC#Cc3cncnc3)CO2)[C@]1(C)O,MIC,27660 (erythromycin-resistant),0.25 µg/mL
CCCCCCCCCCOC[N+](C)(C)CCCCCCCC,MBC,ATCC33592,13.7 µM
CCC(=O)N=C1[C@H](C)C[C@@]2(C)OC/C(=C/C=C/c3ccccc3)COC([C@H]1C)[C@](C)(O)[C@@H](CC)OC(=O)[C@H](C)C(=O)[C@H](C)[C@H]2O[C@@H]1O[C@H](C)C[C@H](N(C)C)[C@H]1O,MIC,27660 (erythromycin-resistant),0.5 µg/mL
CCCCCCCCCCCC[N+](C)(C)COC(CC)CCCCC,MIC,ATCC 6538,2.55 µM
O=C1O[C@@H](CNc2ccon2)CN1c1ccc(-n2ccnc2)c(F)c1,MIC,078 (oxford),0.13 µg/mL
CC[C@H]1OC(=O)[C@H](C)C(=O)[C@H](C)[C@@H](O[C@@H]2O[C@H](C)C[C@H](N(C)C)[C@H]2O)[C@@]2(C)C[C@@H](C)C(=NC(C)=O)[C@H](C)C(OC/C(=C\C=C\c3cccc([N+](=O)[O-])c3)CO2)[C@]1(C)O,MIC,29213 (erythromycin-susceptible),0.5 µg/mL
CCCCCCCCCCCC[N+](C)(C)COC1CCCCCC1,MBC,ATCC33592,26.6 µM
CC[C@H]1OC(=O)[C@H](C)C(=O)[C@H](C)[C@@H](O[C@@H]2O[C@H](C)C[C@H](N(C)C)[C@H]2O)[C@@]2(C)C[C@@H](C)C(=NC(C)=O)[C@H](C)C(OC/C(=N\OCC#Cc3cccc(N)n3)CO2)[C@]1(C)O,MIC,33591 (erythromycin methicillin-resistant),>64 µg/mL
O=C1O[C@@H](COc2ccon2)CN1c1ccc(N2CCC(O)CC2)c(F)c1,MIC,004 (methicillin quinolone-resistant),4 µg/mL
C=CC(=O)NC[C@H]1CN(c2ccc3c(c2)-n2cccc2COC3)C(=O)O1,MIC,ATCC 33591 (MRSA),4 µg/mL
CCCC[C@H](CC(=O)NO)C(=O)N[C@@H](CC(C)C)C(=O)Nc1ccc2ccccc2c1,MIC90,25 strains,4 µg/mL
CC[C@H]1OC(=O)[C@H](C)C(=O)[C@H](C)[C@@H](O[C@@H]2O[C@H](C)C[C@H](N(C)C)[C@H]2O)[C@@]2(C)C[C@@H](C)C(=NC(C)=O)[C@H](C)C(OC/C(=C\C=C\c3cccnc3)CO2)[C@]1(C)O,MIC,27660 (erythromycin-resistant),0.5 µg/mL
C[C@H]1COc2c(N3CCN(C)CC3)c(F)cc3c(=O)c(C(=O)O)cn1c23,MIC,OC667 (methicillin-resistant),0.25 µg/mL
CC[C@H]1OC(=O)[C@H](C)C(=O)[C@H](C)[C@@H](O[C@@H]2O[C@H](C)C[C@H](N(C)C)[C@H]2O)[C@@]2(C)C[C@@H](C)C(=NC(C)=O)[C@H](C)[C@@H](OC/C(=N\Oc3ccc(-c4nnc(N)s4)cc3)CO2)[C@]1(C)O,MIC,25923 (erythromycin-susceptible),0.13 µg/mL
CC[C@H]1OC(=O)[C@H](C)C(=O)[C@H](C)[C@@H](O[C@@H]2O[C@H](C)C[C@H](N(C)C)[C@H]2O)[C@@]2(C)C[C@@H](C)C(=NC(C)=O)[C@H](C)C(OC/C=C/CO2)[C@]1(C)O,MIC,27660 (erythromycin-resistant),1 µg/mL
CC(C)OC(=S)NC[C@H]1CN(c2ccc3c(c2)-n2cccc2COC3)C(=O)O1,MIC,ATCC 29213 (MSSA),>32 µg/mL
C=C1COC2[C@@H](C)C(=NC(C)=O)[C@H](C)C[C@@](C)(OC1)[C@H](O[C@@H]1O[C@H](C)C[C@H](N(C)C)[C@H]1O)[C@@H](C)C(=O)[C@@H](C)C(=O)O[C@H](CC)[C@@]2(C)O,MIC,27660 (erythromycin-resistant),2 µg/mL
CCOC(=S)NC[C@H]1CN(c2ccc3c(c2)-n2cccc2COC3)C(=O)O1,MIC,ATCC 33591 (MRSA),4 µg/mL
O=C1O[C@@H](COc2cnsn2)CN1c1ccc(-n2ccnc2)c(F)c1,MIC,004 (methicillin quinolone-resistant),0.5 µg/mL
CCC(=O)NC[C@H]1CN(c2ccc3c(c2)-n2cccc2COC3)C(=O)O1,MIC,ATCC 33591 (MRSA),4 µg/mL
CCCCCCCCCCCC[N+](C)(C)CSCCC,MIC,ATCC33592,15 µM
CCOC(=O)NC[C@H]1CN(c2ccc3c(c2)-n2cccc2COC3)C(=O)O1,MIC,ATCC 49951 (SMITH),16 µg/mL
CC[C@H]1OC(=O)[C@H](C)C(=O)[C@H](C)[C@@H](O[C@@H]2O[C@H](C)C[C@H](N(C)C)[C@H]2O)[C@@]2(C)C[C@@H](C)C(=NC(=O)CO)[C@H](C)C(OC/C(=C\C=C\c3ccccc3)CO2)[C@]1(C)O,MIC,29213 (erythromycin-susceptible),0.5 µg/mL
CC(C)CC(=O)NC[C@H]1CN(c2ccc3c(c2)-n2cccc2COC3)C(=O)O1,MIC,ATCC 29213 (MSSA),32 µg/mL
CC[C@H]1OC(=O)[C@H](C)C(=O)[C@H](C)[C@@H](O[C@@H]2O[C@H](C)C[C@H](N(C)C)[C@H]2O)[C@@]2(C)C[C@@H](C)/C(=N\C(=O)OC)[C@H](C)C(OC/C(=C\C=C\c3ccccc3)CO2)[C@]1(C)O,MIC,33591 (erythromycin methicillin-resistant),64 µg/mL
COC(=S)NC[C@H]1CN(c2ccc3c(c2)-n2cccc2COC3)C(=O)O1,MIC,ATCC 33591 (MRSA),0.5 µg/mL
CC[C@H]1OC(=O)[C@H](C)C(=O)[C@H](C)[C@@H](O[C@@H]2O[C@H](C)C[C@H](N(C)C)[C@H]2O)[C@@]2(C)C[C@@H](C)C(=NC(C)=O)[C@H](C)C(OC/C(=C\c3ccccc3)CO2)[C@]1(C)O,MIC,29213 (erythromycin-susceptible),0.5 µg/mL
CCCCCCCCCCCC[N+](C)(C)COCCC(C)CCCC(C)C,MBC,ATCC 6538,23.8 µM
CC(C)C(=S)NC[C@H]1CN(c2ccc3c(c2)-n2cccc2COC3)C(=O)O1,MIC,ATCC 49951 (SMITH),4 µg/mL

The last 2 rows once more:

SMILES,endpoint,strain,value
CCCCCCCCCCCC[N+](C)(C)COCCC(C)CCCC(C)C,MBC,ATCC 6538,23.8 µM
CC(C)C(=S)NC[C@H]1CN(c2ccc3c(c2)-n2cccc2COC3)C(=O)O1,MIC,ATCC 49951 (SMITH),4 µg/mL